Results deposited as PubChem BioAssay AID624099 (ICCB-Longwood, 2012).
Here is one part, drawn at random, of about 21,000 reagents tested. Over the whole deposit, 497 (2.4%) got an active call. 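Higher z means weaker E2 silencing; only reporter increases were scored, and knock-downs that hurt cell survival may mask genuine repressor factors.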 Entries without a mark were called inactive. The numbers tell different reagents against one gene apart. No sequences are given here.

- Aim: 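Knock-downs relieving repression by E2 of an HPV18 LCR luciferase reporter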 (primary screen)
- System: human C33A cervical carcinoma cells (HPV-negative) stably expressing BPV1 E2 and an HPV18 LCR luciferase reporter
- Reagent: siRNA pool against human genes, 40 nM
- Duration: 72 h
- Measurement: 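Per-well luciferase luminescence, z-scored on each plate against the plate mean and SD with control wells left out, then averaged across three replicate plates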
- Direction: mean z-score and z-score: higher = stronger reporter signal, weaker E2 silencing
- Rule for the call: 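Mean z ≥ 2 together with z ≥ 2 in two or more of the three replicates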

| target gene | reagent | mean z-score | z-score, replicate A | z-score, replicate B | z-score, replicate C |
| --- | --- | --- | --- | --- | --- |
| EIF4HP1 | 1 | 0.56 | 0.9 | 0.23 | 0.55 |
| EIF4HP1 | 2 | 0.31 | 0.22 | 0.37 | 0.34 |
| MRPL34 | 1 | -0.81 | -0.88 | -0.75 | -0.8 |
| ZNF668 | 1 | 1.82 | 1.97 | 2.19 | 1.3 |
| ZNF830 | 1 | -0.69 | -0.82 | -1.22 | -0.04 |
| CLUL1 | 1 | 0.01 | 0.14 | 0.05 | -0.14 |
| LTC4S | 1 | -0.59 | -0.45 | -0.69 | -0.63 |
| DPP4 | 1 | 0.19 | 0.06 | 0.1 | 0.4 |
| LOC401500 (retired record) | 1 | -0.37 | -0.21 | -0.64 | -0.25 |
| PAGE1 | 1 | -1.21 | -1.31 | -1.2 | -1.11 |
| ZNF250 | 1 | 0.28 | 0.62 | 0.4 | -0.18 |
| MAGEA6 | 1 | 0.93 | 1.09 | 0.86 | 0.85 |
| NDUFA2 | 1 | 0.13 | -0.04 | 0.31 | 0.11 |
| IL12B | 1 | -0.11 | 0.12 | -0.22 | -0.25 |
| WDR90 | 1 | 1.29 | 0.93 | 1.26 | 1.67 |
| WDR90 | 2 | 1.77 | 1.56 | 1.58 | 2.18 |
| CES5A | 1 | -0.23 | -0.23 | -0.12 | -0.32 |
| RPL15P11 | 1 | -0.22 | -0.76 | 0.04 | 0.07 |
| RPL15P11 | 2 | -0.3 | -0.26 | -0.37 | -0.28 |
| EXOSC4 | 1 | -0.97 | -1.17 | -0.92 | -0.83 |
| HHLA1 | 1 | 0.21 | 0.11 | 0.2 | 0.32 |
| DNAJC22 | 1 | -0.68 | -0.57 | -0.69 | -0.78 |
| CHST15 | 1 | 2.95 (active) | 3.85 | 2.71 | 2.29 |
| GARIN6 | 1 | -0.24 | 0.05 | -0.18 | -0.6 |
| MT-ND1 | 1 | 0 | 0.23 | -0.33 | 0.09 |
| RBM27 | 1 | 0.77 | 0.86 | 0.89 | 0.57 |
| SESN3 | 1 | -0.61 | -0.12 | -0.77 | -0.95 |
| LOC440265 (retired record) | 1 | -0.46 | -0.31 | -0.25 | -0.83 |
| TSLIG3B | 1 | 0.26 | 0.11 | 0.27 | 0.4 |
| APBB2 | 1 | -0.47 | -0.23 | -0.7 | -0.48 |
| LOC100128988 | 1 | -0.84 | -0.62 | -1.17 | -0.75 |
| ANKHD1-EIF4EBP3 | 1 | -0.07 | 0.15 | -0.16 | -0.19 |
| USP43 | 1 | -1.58 | -1.94 | -1.55 | -1.25 |
| PARP10 | 1 | 0.18 | 0.34 | -0.06 | 0.25 |
| ANXA2R-AS1 | 1 | 0.99 | 1.88 | 0.57 | 0.51 |
| FERMT2 | 1 | 0.97 | 0.94 | 0.85 | 1.12 |
| UBE2G2 | 1 | 0.93 | 1.12 | 0.84 | 0.83 |
| UBAP1L | 1 | 0.15 | 0.28 | 0.18 | -0.01 |
| KCTD17 | 1 | 0.76 | 0.37 | 0.93 | 0.99 |
| FLJ42220 (retired record) | 1 | -0.56 | -0.38 | -0.75 | -0.56 |
| DR1 | 1 | 0.51 | 0.51 | 0.42 | 0.6 |
| LEAP2 | 1 | -0.06 | -0.28 | 0.3 | -0.19 |
| STOX2 | 1 | 0.78 | 0.7 | 0.79 | 0.86 |
| CRTAP | 1 | -0.52 | -0.3 | -0.61 | -0.64 |
| ZDHHC19 | 1 | 0.13 | 0.39 | 0.14 | -0.14 |
| MRPL35 | 1 | -0.01 | 0.21 | -0.33 | 0.1 |
| ATXN2L | 1 | 0.07 | 0.16 | -0.03 | 0.08 |
| LOC388491 (retired record) | 1 | -0.28 | -0.29 | -0.21 | -0.35 |
| ABCC6 | 1 | -0.42 | -0.49 | -0.56 | -0.23 |
| MYO9B | 1 | 0.79 | 0.46 | 0.75 | 1.15 |
| BET1L | 1 | -0.56 | -0.34 | -0.9 | -0.43 |
| NTF3 | 1 | 1.01 | 0.97 | 1.07 | 1 |
| KDM3B | 1 | 2.36 (active) | 2.61 | 2.41 | 2.05 |
| TCEAL4 | 1 | -0.59 | -0.77 | -0.74 | -0.27 |
| ZNF503-AS2 | 1 | 0.9 | 0.72 | 0.36 | 1.61 |
| ATP11A | 1 | -1.23 | -1.36 | -1.08 | -1.26 |
| RELB | 1 | -0.74 | -0.98 | -0.53 | -0.7 |

5 of these entries in another layout.
target gene,reagent,mean z-score,"z-score, replicate A","z-score, replicate B","z-score, replicate C"
ANKHD1-EIF4EBP3,1,-0.07,0.15,-0.16,-0.19
USP43,1,-1.58,-1.94,-1.55,-1.25
PARP10,1,0.18,0.34,-0.06,0.25
ANXA2R-AS1,1,0.99,1.88,0.57,0.51
FERMT2,1,0.97,0.94,0.85,1.12
